PubChem BioAssay (NCATS)
The entries are a selection whose mix differs from that of the whole data set. Results filed as inconclusive are left out. Activity calls are given as the source filed them. Calls follow the shape of the dose curve; as a rule, active = well fitted inhibition curve with a large enough effect; inconclusive = small, poorly fitted or top-dose-only effect; inactive = flat fitted curve, though single readings scatter.

Experiments:
AS120 = experiment: qHTS profiling for inhibitors of Plasmodium falciparum proliferation (AID 504749);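 also: 0% = DMSO vehicle and full inhibition = artemisinin control; nearly all actives have a fitted effect of over 60% in size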; settings: P. falciparum in erythrocytes, SYBR Green DNA, 72 h; at 28.7 µM (top of the series)
How it was run: (§1)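 In a 72 h erythrocytic culture (37 C, humidified, 5% CO2) at 2.5% hematocrit and 0.3% starting parasitemia, compounds were tested; SYBR Green I in detergent lysis buffer stained parasite DNA overnight.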

TAB109 = experiment: as above; settings: P. falciparum in erythrocytes, SYBR Green DNA, 72 h; at 28.7 µM (top of the series)
How it was run: as §1

| Compound | activity, negative = inhibition (AS120) | activity, negative = inhibition (TAB109) |
| --- | --- | --- |
| OCCSCCO | inactive: 13.7% |  |
| CN(C)CCS |  | inactive: 15.5% |
